{
  "source": "patent US20230234994A1",
  "about": "“Vasopressin-2 receptor antagonist peptides and uses thereof” (COMMISSARIAT A L ENERGIE ATOMIQUE ET AUX ENERGIES …, published 2023)",
  "binders": {"B1": {"name": "WT MQ1 peptide (prior art) (peptide)", "peptide": "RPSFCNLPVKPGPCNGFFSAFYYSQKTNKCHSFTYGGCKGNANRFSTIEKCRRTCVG"}},
  "assay_in_all_cases": "cell-based or functional assay",
  "key": {"[1]": {"target": "Chymotrypsin (Bovine, UniProt P00766 1-245)"}, "[2]": {"target": "T1, Caspase 2 (Human, UniProt P42575 150-435)", "T1 sequence": "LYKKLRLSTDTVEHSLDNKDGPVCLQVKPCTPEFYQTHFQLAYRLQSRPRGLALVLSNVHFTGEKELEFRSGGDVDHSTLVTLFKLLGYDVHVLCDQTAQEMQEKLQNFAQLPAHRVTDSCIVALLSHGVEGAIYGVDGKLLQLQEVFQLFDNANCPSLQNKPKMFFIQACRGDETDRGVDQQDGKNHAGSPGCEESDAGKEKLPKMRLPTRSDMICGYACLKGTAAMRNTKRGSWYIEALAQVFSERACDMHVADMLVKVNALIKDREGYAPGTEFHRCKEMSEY"}, "[3]": {"target": "T2, Matriptase 2 (Human, UniProt Q8IU80 78-811)", "T2 sequence": "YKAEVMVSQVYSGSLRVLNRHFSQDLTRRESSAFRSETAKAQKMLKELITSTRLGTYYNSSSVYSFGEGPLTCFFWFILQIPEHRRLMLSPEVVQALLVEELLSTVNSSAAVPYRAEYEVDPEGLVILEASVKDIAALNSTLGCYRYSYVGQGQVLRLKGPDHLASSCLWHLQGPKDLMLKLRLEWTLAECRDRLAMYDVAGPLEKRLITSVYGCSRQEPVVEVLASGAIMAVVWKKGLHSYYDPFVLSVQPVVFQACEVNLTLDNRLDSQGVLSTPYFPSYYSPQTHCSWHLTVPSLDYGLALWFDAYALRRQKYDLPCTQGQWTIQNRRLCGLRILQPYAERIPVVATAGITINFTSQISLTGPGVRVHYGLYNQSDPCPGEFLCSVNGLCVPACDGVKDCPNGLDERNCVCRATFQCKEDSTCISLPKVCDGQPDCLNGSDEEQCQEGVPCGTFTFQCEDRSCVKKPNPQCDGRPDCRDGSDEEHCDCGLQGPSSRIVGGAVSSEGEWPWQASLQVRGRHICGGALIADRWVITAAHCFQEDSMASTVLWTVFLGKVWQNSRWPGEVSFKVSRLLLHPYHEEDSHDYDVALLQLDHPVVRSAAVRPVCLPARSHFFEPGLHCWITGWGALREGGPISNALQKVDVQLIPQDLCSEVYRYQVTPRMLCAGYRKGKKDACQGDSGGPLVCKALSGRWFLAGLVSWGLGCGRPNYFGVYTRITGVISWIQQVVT"}, "[4]": {"target": "T3, Cathepsin G (Human, UniProt P08311 21-244)", "T3 sequence": "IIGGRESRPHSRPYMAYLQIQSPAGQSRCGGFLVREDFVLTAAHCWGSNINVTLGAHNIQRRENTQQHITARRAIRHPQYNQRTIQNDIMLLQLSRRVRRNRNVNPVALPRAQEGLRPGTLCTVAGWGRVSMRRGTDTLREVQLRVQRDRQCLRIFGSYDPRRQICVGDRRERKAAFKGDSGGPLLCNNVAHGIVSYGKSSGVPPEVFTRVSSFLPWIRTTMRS"}, "[5]": {"target": "T4, Kallikrein 7 (Human, UniProt P49862 23-252)", "T4 sequence": "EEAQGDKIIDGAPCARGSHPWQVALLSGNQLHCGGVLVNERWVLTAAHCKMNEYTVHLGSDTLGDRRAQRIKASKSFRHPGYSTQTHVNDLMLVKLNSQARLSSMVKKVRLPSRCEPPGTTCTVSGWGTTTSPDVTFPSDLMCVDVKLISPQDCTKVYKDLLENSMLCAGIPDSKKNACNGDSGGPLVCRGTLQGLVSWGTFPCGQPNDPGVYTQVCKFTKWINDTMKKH"}, "[6]": {"target": "Chymase (Human, UniProt P23946 22-247)"}, "[7]": {"target": "T5, Caspase 9 (Human, UniProt P55211 131-416)", "T5 sequence": "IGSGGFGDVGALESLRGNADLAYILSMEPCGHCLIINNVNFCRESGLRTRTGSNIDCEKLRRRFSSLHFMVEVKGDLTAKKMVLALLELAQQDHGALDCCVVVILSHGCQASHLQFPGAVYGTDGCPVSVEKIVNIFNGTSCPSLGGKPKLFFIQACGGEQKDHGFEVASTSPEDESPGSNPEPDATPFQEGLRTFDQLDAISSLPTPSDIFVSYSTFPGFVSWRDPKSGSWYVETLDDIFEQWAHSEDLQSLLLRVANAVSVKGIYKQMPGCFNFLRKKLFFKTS"}, "[8]": {"target": "T6, Caspase 11 (Mouse, UniProt P70343 102-373)", "T6 sequence": "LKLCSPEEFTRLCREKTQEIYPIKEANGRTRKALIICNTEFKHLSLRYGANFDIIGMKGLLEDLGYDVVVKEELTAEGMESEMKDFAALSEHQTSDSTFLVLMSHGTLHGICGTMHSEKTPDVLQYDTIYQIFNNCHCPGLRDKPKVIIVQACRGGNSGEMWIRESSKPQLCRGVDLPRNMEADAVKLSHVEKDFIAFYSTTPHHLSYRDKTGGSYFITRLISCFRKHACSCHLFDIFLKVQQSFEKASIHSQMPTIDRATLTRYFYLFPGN"}, "[9]": {"target": "Plasma Kallikrein (Human, UniProt P03952 20-638)"}, "[10]": {"target": "Tryptase beta 2 (Human, UniProt P20231 31-275)"}, "[11]": {"target": "T7, Kallikrein 5 (Human, UniProt Q9Y337 67-293)", "T7 sequence": "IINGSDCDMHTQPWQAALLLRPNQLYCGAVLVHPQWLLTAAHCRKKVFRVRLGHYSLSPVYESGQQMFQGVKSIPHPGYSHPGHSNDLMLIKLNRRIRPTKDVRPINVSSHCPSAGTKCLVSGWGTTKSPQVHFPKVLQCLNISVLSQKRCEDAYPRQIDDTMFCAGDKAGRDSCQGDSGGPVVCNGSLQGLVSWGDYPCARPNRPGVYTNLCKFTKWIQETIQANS"}, "[12]": {"target": "Trypsin (Bovine, UniProt P00760 24-246)"}, "[13]": {"target": "Cathepsin C (Human, UniProt P53634 25-463)"}, "[14]": {"target": "T8, Caspase 10 (Human, UniProt Q92851 220-479)", "T8 sequence": "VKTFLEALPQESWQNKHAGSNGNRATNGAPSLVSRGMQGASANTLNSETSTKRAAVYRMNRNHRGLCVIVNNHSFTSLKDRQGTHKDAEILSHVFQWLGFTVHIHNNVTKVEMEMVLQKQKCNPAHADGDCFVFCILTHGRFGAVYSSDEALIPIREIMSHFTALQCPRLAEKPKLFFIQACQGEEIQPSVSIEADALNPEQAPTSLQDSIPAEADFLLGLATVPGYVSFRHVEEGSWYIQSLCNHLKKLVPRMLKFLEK"}, "[15]": {"target": "T9, Caspase 1 (Human, UniProt P29466 120-404)", "T9 sequence": "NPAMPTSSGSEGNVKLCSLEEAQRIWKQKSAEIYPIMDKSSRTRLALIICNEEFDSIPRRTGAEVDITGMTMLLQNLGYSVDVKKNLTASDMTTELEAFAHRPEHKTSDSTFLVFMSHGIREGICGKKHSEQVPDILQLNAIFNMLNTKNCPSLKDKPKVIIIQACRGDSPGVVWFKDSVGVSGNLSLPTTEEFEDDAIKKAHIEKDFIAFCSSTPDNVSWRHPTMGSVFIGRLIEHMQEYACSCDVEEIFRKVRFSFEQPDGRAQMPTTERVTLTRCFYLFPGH"}, "[16]": {"target": "T10, Papain (Papaya, UniProt P00784 134-345)", "T10 sequence": "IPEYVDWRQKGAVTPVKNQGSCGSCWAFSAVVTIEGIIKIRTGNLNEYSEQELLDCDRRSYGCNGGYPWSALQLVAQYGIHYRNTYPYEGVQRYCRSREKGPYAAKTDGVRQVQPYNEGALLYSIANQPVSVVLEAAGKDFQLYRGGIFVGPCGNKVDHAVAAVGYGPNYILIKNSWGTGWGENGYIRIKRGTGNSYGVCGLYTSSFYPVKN"}},
  "data": [
    {"binder": "B1", "values": [
      {"measurement": "Compound IC50 (M), protease activity assay", "setting": "[1]", "result": "2.74e-06", "unit": "M"},
      {"measurement": "Compound IC50 (M), protease activity assay", "setting": "[2]", "result": "4.25e-05", "unit": "M"},
      {"measurement": "Compound IC50 (M), protease activity assay", "setting": "[3]", "result": "1.16e-07", "unit": "M"},
      {"measurement": "Compound IC50 (M), protease activity assay", "setting": "[4]", "result": "8.54e-06", "unit": "M"},
      {"measurement": "Compound IC50 (M), protease activity assay", "setting": "[5]", "result": "3.65e-06", "unit": "M"},
      {"measurement": "Compound IC50 (M), protease activity assay", "setting": "[6]", "result": "1.82e-05", "unit": "M"},
      {"measurement": "Compound IC50 (M), protease activity assay", "setting": "[7]", "result": "8.94e-06", "unit": "M"},
      {"measurement": "Compound IC50 (M), protease activity assay", "setting": "[8]", "result": "1.4e-05", "unit": "M"},
      {"measurement": "Compound IC50 (M), protease activity assay", "setting": "[9]", "result": "3.89e-06", "unit": "M"},
      {"measurement": "Compound IC50 (M), protease activity assay", "setting": "[10]", "result": "3.63e-06", "unit": "M"},
      {"measurement": "Compound IC50 (M), protease activity assay", "setting": "[11]", "result": "5.77e-06", "unit": "M"},
      {"measurement": "Compound IC50 (M), protease activity assay", "setting": "[12]", "result": "3.69e-06", "unit": "M"},
      {"measurement": "Compound IC50 (M), protease activity assay", "setting": "[13]", "result": "4.59e-05", "unit": "M"},
      {"measurement": "Compound IC50 (M), protease activity assay", "setting": "[14]", "result": "9.33e-06", "unit": "M"},
      {"measurement": "Compound IC50 (M), protease activity assay", "setting": "[15]", "result": "3.71e-05", "unit": "M"},
      {"measurement": "Compound IC50 (M), protease activity assay", "setting": "[16]", "result": "1.76e-05", "unit": "M"}
    ]}
  ]
}
